Measured values: article PMC7418971 (PLoS Pathogens, 2020)

Test system: Eng195 in MDCK culture
Conditions: 80 μM compound, MOI 0.001 at bottleneck

SMILES	output titres (passage 14) after bottleneck at passage eight
Cc1c2ccccc2n2cc(-c3ccccc3)nc(C(C)C)c12 [DL7]	recovered to a similar range as controls
COc1ccccc1NC(=S)NC(=O)c1cc2ccccc2cc1OC [L1.1]	significant reduction
